Experimental data reported in patent US20100034839A1 (priority 2008, published 2010).
Plain letter strings leave the end groups untold. One purity is given for all peptides; the source may state it once.

Experiment: peptide made by a vendor
Details: whole synthesis

| Sequence | final HPLC purity [%] |
| --- | --- |
| SGGGANSGFRIMAVLASGGQY | >95 |
| SGGGKALVQNDTLLQVKG | >95 |
| KALVQNDTLLQVKG | >95 |
| SKMRMATPLLMQALY | >95 |
| ANSGFRIMAVLASGGQY | >95 |
